The entries are a selection whose mix differs from that of the whole data set. Active and inactive are the calls of the source. Rule as the data show it: active = inhibition above about 21% (passing the limit was not always enough); inactive = the rest.
Molecular target: 1,4-dihydroxy-2-naphthoyl-CoA synthase (Mycobacterium tuberculosis (strain ATCC 25618 / H37Rv)) (UniProt P9WNP5)
Experiment: M. tuberculosis MenB inhibitors, primary screen, biochemical, absorbance (AID 540299)
Conditions: MenB enzyme assay, absorbance read-out; hits give high values; concentration not given here

The chains behind the UniProt entries cited, without tags or fusion partners.
UniProt P9WNP5, whole entry: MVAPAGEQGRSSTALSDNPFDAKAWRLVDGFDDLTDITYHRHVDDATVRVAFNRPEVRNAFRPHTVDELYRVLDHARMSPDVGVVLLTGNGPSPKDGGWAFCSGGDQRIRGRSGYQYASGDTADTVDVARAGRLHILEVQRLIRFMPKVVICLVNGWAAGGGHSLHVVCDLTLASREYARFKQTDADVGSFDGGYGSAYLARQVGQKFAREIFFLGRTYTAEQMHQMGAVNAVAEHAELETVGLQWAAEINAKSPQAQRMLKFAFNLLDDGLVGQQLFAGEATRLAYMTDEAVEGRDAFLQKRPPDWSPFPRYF

| SMILES | inhibition |
| --- | --- |
| NC(=O)Nc1ccc([As](=O)(O)O)cc1 | inactive: 4.47% |
| O=P1(Nc2nc3ccc(Cl)cc3s2)COc2ccccc2OC1 | inactive: -13.1% |
| CCOP1(=S)c2c(C)nn(CCC#N)c2N=C(c2ccc(F)cc2)N1C (centres undefined) | inactive: -2.96% |
| NC(=O)COC(=O)C1(O)c2ccccc2-c2ccccc21 | inactive: -20.1% |
| O=C(OC1CN2CCC1CC2)c1ccc(Cl)cc1 (centres undefined) | inactive: -6.85% |
| Cc1cccc(OCC(=O)OC2CN3CCC2CC3)c1 (centres undefined) | inactive: -6.14% |
| COc1cc(-n2cnnn2)ccc1-n1cnnn1 | inactive: -18.7% |
| O=P1(Nc2ccccn2)COc2ccccc2OC1 | inactive: -13.2% |
| Nc1nonc1-c1no[n+]([O-])c1-c1nonc1N | inactive: -37.1% |
| Cc1cc(C)cc(OP(C)(=O)Nc2ccc(OC(C)C)cc2)c1 (centres undefined) | inactive: -6.14% |
| CCSP(=O)(c1ccccc1)c1ccccc1 | inactive: -22.2% |
| CC1(C)COP(=S)(N(C2=NCCC2)c2ccccc2)OC1 | inactive: -20.9% |
| Cc1ccc(C(=O)OC2CN3CCC2CC3)cc1 (centres undefined) | inactive: -7.58% |
| Cc1nn(-c2ccccc2)c2c1P(=O)(N1CCOCC1)N(C)C(c1ccccc1)=N2 (centres undefined) | inactive: -2.97% |
| Cc1nn(CCC#N)c2c1P(=O)(Nc1ccccc1Cl)N(C)C(c1ccc(F)cc1)=N2 (centres undefined) | inactive: -4.79% |
| CP(=O)(N1CCOCC1)N1CCOCC1 | inactive: -4.83% |
| CP(=O)(Nc1ccc(Cl)cc1)Oc1ccccc1 (centres undefined) | inactive: -3.49% |
| COc1ccccc1OP(C)(=O)Nc1ccccc1 (centres undefined) | inactive: 14.4% |
| CCN1C(=O)N(c2ccccc2)P(=S)(OC)c2cc3c(cc21)OCCO3 (centres undefined) | inactive: 3.31% |
| O=C(O)CCC(=O)N=S(c1ccccc1)c1ccccc1.O=[N+]([O-])c1cc([N+](=O)[O-])c(O)c([N+](=O)[O-])c1 | inactive: -70.7% |
| Cc1cccc(NP(C)(=O)Oc2ccccc2)c1 (centres undefined) | inactive: -1.8% |
| CCOC(=O)c1ccc(NP(C)(=O)Oc2ccc(OC)cc2)cc1 (centres undefined) | inactive: 2.36% |
| CCn1cccc/c1=N\P1(=S)OCCO1 | inactive: -12.8% |
| COP1(=S)c2c(C)nn(-c3ccccc3)c2N=C(c2ccccc2)N1C1CC1 (centres undefined) | inactive: -15.8% |
| CP(=O)(NC(=O)Nc1ccccc1)Oc1ccccc1 (centres undefined) | inactive: -25.2% |
| O=P1(Nc2nccs2)CC=CC1 | inactive: -12.7% |
| CN(C)P1(=O)Nc2ccccc2S1 (centres undefined) | inactive: -35.6% |

| SMILES | inhibition |
| --- | --- |
| O=C(OC1CN2CCC1CC2)C12CC3CC(CC(C3)C1)C2 (centres undefined) | inactive: -8.94% |
| Cc1cc(C)cc(OP(C)(=O)NCc2ccccc2)c1 (centres undefined) | inactive: -62.6% |
| Nc1nonc1OCCOc1nonc1N | inactive: -24.5% |
| COP1(=S)N=C2c3ccccc3CN2c2cc(N(C)C)ccc21 (centres undefined) | inactive: -16.7% |
| CC1=Nc2ccc(C(F)(F)F)cc2C1(C)C | inactive: -114% |
| O=C(COC(=O)C(O)(c1ccccc1)c1ccccc1)N1CCCCC1 | inactive: 2.66% |
| CN(C(=O)Cc1ccc(Cl)c(Cl)c1)[C@H]1CCCC[C@@H]1N1CCCC1 | inactive: -2.2% |
| CCOP(=Nc1nc2ccccc2n2nnnc12)(OCC)OCC | inactive: -3.14% |
| CP(=O)(Nc1ccccn1)Oc1ccccc1 (centres undefined) | inactive: 1.57% |
| CP(=O)(Nc1ccc(Cl)cc1)Oc1ccc(F)cc1 (centres undefined) | inactive: -2.75% |
| CCc1ccc(OP(C)(=O)Nc2cccnc2)cc1 (centres undefined) | inactive: 0.775% |
| CCc1nc2c(n1)c1c(non1O)c1c2no[n+]1[O-] | inactive: -2.27% |
| OCCSCCO | inactive: 4.19% |
| CC(=O)OC1(C#N)CN2CCC1CC2 (centres undefined) | inactive: -34.9% |
| Nc1nonc1OCc1nonc1COc1nonc1N | inactive: 4.63% |
| Cc1ccccc1NP(C)(=O)Nc1ccccc1C | inactive: -5.92% |
| C/C1=C2N=C(/C=C3N=C(/C(C)=C4\[N-][C@@](C)([C@@H]5N=C1[C@](C)(CCC(=O)NC[C@@H](C)OP(=O)([O-])O[C@H]1[C@@H](O)[C@@H](n6cnc7cc(C)c(C)cc76)O[C@@H]1CO)[C@H]5CC(N)=O)[C@@](C)(CC(N)=O)[C@@H]4CCC(N)=O)[C@@](C)(CC(N)=O)[C@@H]\3CCC(N)=O)C(C)(C)[C@@H]/2CCC(N)=O.[C-]#N.[Co+3] | inactive: 4.88% |
| O=P(Nc1nccs1)(c1ccccc1)c1ccccc1 | inactive: 6.33% |
| CC(=O)OC1CN2CCC1C(c1ccccc1)C2 (centres undefined) | inactive: 4.57% |
| O=C(OCCN1CCN(CCOCc2ccccc2)CC1)C(O)(c1ccccc1)c1ccccc1 | inactive: 4.57% |
| O=P1(Nc2nc3ccc(Cl)cc3s2)COc2ccccc2O1 (centres undefined) | inactive: 4.79% |
| Cc1cc(NC2=NC3C(C(=O)N(C)C(=O)N3C)N2C)n(-c2ccccc2)n1 (centres undefined) | inactive: -13.4% |
| O=P1(Nc2nncs2)C=C(c2ccccc2)SC(c2ccccc2)=C1 | inactive: -33.4% |
| COc1cc2c(cc1NP(C)(=O)Oc1ccccc1)oc1ccccc12 (centres undefined) | inactive: -29.1% |
| COC(=O)c1cc2c(s1)N=C(c1ccccc1)N(C)P2(=O)N1CCOCC1 (centres undefined) | inactive: -14.1% |
| CC1CCC(C(C)C)C(OP(=O)(Nc2nccs2)c2ccccc2)C1 (centres undefined) | inactive: -104% |
| O=C(OCC1CN(Cc2ccccc2)CCO1)C(O)(c1ccccc1)c1ccccc1 (centres undefined) | inactive: -29.5% |

From PubChem BioAssay AID540299 (ICCB-Longwood Screening Facility, Harvard Medical School, 2011)
